From PubChem BioAssay AID556 (SRMLSC, 2006)
Only a part is listed here, and it is no random draw. Active and inactive are the calls of the source.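 How the source made its calls: active means the 320 compounds with the highest percent inhibition in the single-dose primary screen, excluding strongly autofluorescent ones (cut at about 32% in these data); inactive means the rest, inconclusive results apart.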

test system: diphosphomevalonate decarboxylase (Streptococcus pneumoniae D39); test: S. pneumoniae DPM-DC inhibitors, primary screen, biochemical, PK/LDH-coupled NADH fluorescence (AID 556); conditions: purified DPM-DC, at 10 µM; hits give high values;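 on inhibition: kinetic rate of NADH fluorescence loss reporting ADP formed by the decarboxylase; 0% = full reaction rate with carrier and 100% = no-substrate background rate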

SMILES | inhibition
COc1ccc(NC2CCN(CCc3ccccc3)CC2)c(OC)c1 | inactive
O=C(OC1CN2CCC1CC2)C1c2ccccc2Oc2ccccc21 (configuration not stated) | inactive
N#CC1(Nc2ccccc2)CCN(CCc2ccccc2)CC1 | inactive
N/C(=N\O)c1c(N)no[n+]1[O-] | inactive
CCC(CO)(C(=O)OC1CN2CCC1CC2)c1ccccc1 (configuration not stated) | inactive
CCOc1ncccc1C(=O)NCC1(N2CCOCC2)CCCCC1 | inactive
Fc1ccccc1NC1CCN(Cc2ccccc2)CC1 | inactive: 1%
